Anti-infective test results gathered from many reports (values: NIAID ChemDB through PubChem).

All rows: whole-cell or culture tests; organism: HIV-1; cell line: ATH8; measure: EC50

Conditions beyond the fields shown may differ between rows. Blank or dashed fields: not listed here. ECn: concentration that inhibits the pathogen or its effect by n%.

SMILES	strain or isolate	read by	value
Nc1nc(Cl)nc2c1ncn2[C@H]1CC[C@@H](CO)O1	IIIB	cytopathic effect / trypan blue	>2 µM
Nc1ccn(C/C=C/CCl)c(=O)n1	IIIB	cytopathic effect / trypan blue	>100 µM
Nc1ccn([C@H]2C=C[C@@H](CO)O2)c(=O)n1	LAV	cytopathic effect	<200 µM
Nc1ncnc2c1ncn2[C@H]1CC[C@@H](COP(=O)(O)O)O1	IIIB Laboratory strain	cytopathic effect / trypan blue	<5 µM
Nc1ncnc2c1ncn2CC#CCO	IIIB	cytopathic effect / trypan blue	>100 µM
Cc1cn([C@H]2C[C@H](N=[N+]=[N-])[C@@H](CO)O2)c(=O)[nH]c1=O	IIIB	cytopathic effect / trypan blue	<5 µM
Nc1nc2c(ncn2C/C=C\CO)c(=O)[nH]1	IIIB	cytopathic effect / trypan blue	>500 µM
Nc1ccn([C@H]2C=C[C@@H](CO)O2)c(=O)n1	IIIB	cytopathic effect / trypan blue	0.3 µM
OC[C@H]1O[C@@H](n2cnc3c2NC=NC[C@H]3O)C[C@@H]1O		cytopathic effect	>0.05 µM
CSC[C@H](NC(=O)COc1cccc2cnccc12)C(=O)N[C@@H](Cc1ccccc1)[C@H](O)C(=O)N1CSC(C)(C)[C@H]1C(=O)NC(C)(C)C	MN	cytopathic effect	0.03 µM
Cc1cn([C@H]2C[C@H](N=[N+]=[N-])[C@@H](CO)O2)c(=O)[nH]c1=O	IIIB	cytopathic effect / trypan blue	<1 µM
Nc1ccn([C@H]2CC[C@@H](CO)O2)c(=O)n1	IIIB	cytopathic effect	0.3 µM
CC(C)(C)NC(=O)[C@@H]1CCCN1C(=O)[C@@H](O)[C@H](Cc1ccccc1)NC(=O)[C@H](CC(N)=O)NC(=O)COc1cccc2ccccc12	LAI	trypan blue	0.9 µM
CSC[C@H](NC(=O)COc1cccc2cnccc12)C(=O)N[C@@H](Cc1ccccc1)[C@H](O)C(=O)N1CSC(C)(C)[C@H]1C(=O)NC(C)(C)C	RF	cytopathic effect	0.02 µM
Cc1cn([C@H]2C=C[C@@H](CO)O2)c(=O)[nH]c1=O	IIIB	cytopathic effect / trypan blue	4.1 µM
NC(=O)c1ncn([C@@H]2O[C@H](CO)[C@@H](O)[C@H]2O)n1	LAV Laboratory strain	cytopathic effect	>100 µg/mL
OC[C@@H]1CC[C@H](n2cnc3c(=S)nc[nH]c32)O1	IIIB	cytopathic effect / trypan blue	>20 µM
O=C(O)P(=O)(O)O	LAV Laboratory strain	cytopathic effect	~50 µg/mL
O=c1ccn([C@@H]2C[C@H](CO)[C@H]2CO)c(=O)[nH]1	IIIB	cytopathic effect / trypan blue	>500 µM
CC(C)(C)NC(=O)[C@@H]1CSCN1C(=O)[C@@H](O)[C@H](Cc1ccccc1)NC(=O)[C@H](CC(N)=O)NC(=O)COc1cccc2ccccc12	LAI	trypan blue	0.5 µM
Cc1cn([C@H]2C[C@H](N=[N+]=[N-])[C@@H](COP(=O)(O)OP(=O)(O)OP(=O)(O)O)O2)c(=O)[nH]c1=O	IIIB	cytopathic effect / trypan blue	19 µM
O=c1[nH]cnc2c1ncn2[C@H]1CC[C@@H](CO)O1	LAV	cytopathic effect	<10 µM
Nc1ccn([C@H]2CC[C@@H](CO)O2)c(=O)n1	IIIB	cytopathic effect / trypan blue	<0.2 µM
Nc1ncnc2c1ncn2CCCCO	IIIB	cytopathic effect / trypan blue	>1000 µM
Nc1nc(=O)n([C@H]2CC[C@@H](CO)O2)cc1Br	IIIB Laboratory strain	cytopathic effect / trypan blue	>30 µM
Cc1cn([C@H]2C[C@H](N=[N+]=[N-])[C@@H](COP(=O)(O)CP(=O)(O)OP(=O)(O)O)O2)c(=O)[nH]c1=O	IIIB	cytopathic effect / trypan blue	>200 µM
Nc1ncnc2c1ncn2[C@@H]1O[C@H](CO)[C@H]1CO	IIIB	cytopathic effect / trypan blue	<100 µM
Nc1ncnc2c1ncn2C=C=CCO	IIIB	cytopathic effect / trypan blue	~10 µM
Nc1ncnc2c1ncn2[C@H]1CC[C@@H](CO)O1	LAV	p24	5 µM
CC(C)[C@H](NC(=O)N(C)Cc1ccccn1)C(=O)N[C@@H](Cc1ccccc1)[C@H](O)[C@H](O)[C@H](Cc1ccccc1)NC(=O)[C@@H](NC(=O)N(C)Cc1ccccn1)C(C)C	IIIB	cytopathic effect / trypan blue	<4 µM
Cc1cn([C@H]2C[C@H](C#N)[C@@H](CO)O2)c(=O)[nH]c1=O	IIIB	cytopathic effect	>2.5 µg/mL
OC[C@@H]1CC[C@H](n2cnc3cncnc32)O1	IIIB	cytopathic effect / trypan blue	>200 µM
Nc1ccn([C@H]2CC[C@@H](CO)O2)c(=O)n1	IIIB Laboratory strain	cytopathic effect / trypan blue	<0.5 µM
O=c1[nH]cnc2c1ncn2[C@@H]1O[C@H](CO)C[C@@H]1F		thymidine uptake	5 µM
Cc1cn([C@@H]2C[C@H](CO)[C@H]2CO)c(=O)[nH]c1=O	IIIB	cytopathic effect / trypan blue	>500 µM
Nc1nc2c(ncn2[C@H]2CC[C@@H](CO)O2)c(=O)[nH]1	IIIB	cytopathic effect / trypan blue	<100 µM
O=c1[nH]cnc2c1ncn2[C@H]1CC[C@@H](CO)O1	IIIB	cytopathic effect	8 µM
CCC(C)C(NC(=O)[C@@H]1CCCN1C(=O)[C@@H](O)[C@H](Cc1ccccc1)NC(=O)[C@H](CC(N)=O)NC(=O)OCc1ccccc1)C(=O)NCC1CCCCC1	LAI	trypan blue	17 µM
Nc1ccn([C@H]2CC[C@@H](CO)O2)c(=O)n1		cytopathic effect / XTT	0.24 µg/mL
Nc1ncnc2c1ncn2[C@@H]1O[C@H](CO)[C@@H](O)[C@@H]1O	LAV Laboratory strain	cytopathic effect	>50 µg/mL
CSC[C@H](NC(=O)COc1cccc2cnccc12)C(=O)N[C@@H](Cc1ccccc1)[C@H](O)C(=O)N1CSC(C)(C)[C@H]1C(=O)NC(C)(C)C	MN	trypan blue	0.03 µM
Nc1nc(Br)c2ncn([C@H]3CC[C@@H](CO)O3)c2n1	IIIB	cytopathic effect / trypan blue	<20 µM
Cc1cn([C@H]2C[C@H](N=[N+]=[N-])[C@@H](COP(=O)(O)OP(=O)(O)CP(=O)(O)O)O2)c(=O)[nH]c1=O	IIIB	cytopathic effect / trypan blue	7 µM
Nc1ccn([C@H]2CC[C@@H](CO)O2)c(=O)n1	LAV	p24	0.3 µM

A second listing of 5 rows from above:

SMILES | strain or isolate | read by | value
Nc1ccn([C@H]2C=C[C@@H](CO)O2)c(=O)n1 | LAV | cytopathic effect | <200 µM
Cc1cn([C@H]2C[C@H](N=[N+]=[N-])[C@@H](CO)O2)c(=O)[nH]c1=O | IIIB | cytopathic effect / trypan blue | <5 µM
Nc1ccn([C@H]2CC[C@@H](CO)O2)c(=O)n1 | IIIB | cytopathic effect / trypan blue | <0.2 µM
NC(=O)c1ncn([C@@H]2O[C@H](CO)[C@@H](O)[C@H]2O)n1 | LAV Laboratory strain | cytopathic effect | >100 µg/mL
CSC[C@H](NC(=O)COc1cccc2cnccc12)C(=O)N[C@@H](Cc1ccccc1)[C@H](O)C(=O)N1CSC(C)(C)[C@H]1C(=O)NC(C)(C)C | MN | trypan blue | 0.03 µM